Data on 1 molecule can be found in BindingDB's records for doi:10.1021/acs.biochem.5b00244 (University of Kentucky, 2015).

This assay addresses T1, Acetyltransferase, GNAT family (Bacillus anthracis, UniProt A0A3P1UAV8).
T1 sequence (A0A3P1UAV8 whole entry): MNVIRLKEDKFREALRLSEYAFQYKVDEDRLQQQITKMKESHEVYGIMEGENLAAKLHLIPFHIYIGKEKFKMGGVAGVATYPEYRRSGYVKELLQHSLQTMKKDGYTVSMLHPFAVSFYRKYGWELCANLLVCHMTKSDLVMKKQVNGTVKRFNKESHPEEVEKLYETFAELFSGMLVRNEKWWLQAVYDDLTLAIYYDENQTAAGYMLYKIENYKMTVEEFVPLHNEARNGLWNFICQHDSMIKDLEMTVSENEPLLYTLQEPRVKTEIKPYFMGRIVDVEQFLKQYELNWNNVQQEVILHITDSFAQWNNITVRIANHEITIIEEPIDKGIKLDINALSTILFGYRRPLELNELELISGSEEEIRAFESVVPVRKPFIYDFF
The settings on record: pH 8.

By IC50 is commonly meant the concentration at which inhibition is half-maximal. Read a low IC50 as higher potency. Turning to `[H]/N=C(\N/C(=N/[H])NCCCCCCNC(=N)NC(=N)Nc1ccc(Cl)cc1)Nc1ccc(Cl)cc1` [Chlorhexidine (1)], the IC50 was 14 µM.
